Construct, isoform or probe ends are uncertain for at least one entry. A weaker result is weaker than the reference pair of the same experiment. Where a protein sequence is shown, tags need not be part of it.

The target of the series is T1, SaDinG (Staphylococcus aureus RN4220) (UniProt Q2FYH5).
T1 sequence (looked up): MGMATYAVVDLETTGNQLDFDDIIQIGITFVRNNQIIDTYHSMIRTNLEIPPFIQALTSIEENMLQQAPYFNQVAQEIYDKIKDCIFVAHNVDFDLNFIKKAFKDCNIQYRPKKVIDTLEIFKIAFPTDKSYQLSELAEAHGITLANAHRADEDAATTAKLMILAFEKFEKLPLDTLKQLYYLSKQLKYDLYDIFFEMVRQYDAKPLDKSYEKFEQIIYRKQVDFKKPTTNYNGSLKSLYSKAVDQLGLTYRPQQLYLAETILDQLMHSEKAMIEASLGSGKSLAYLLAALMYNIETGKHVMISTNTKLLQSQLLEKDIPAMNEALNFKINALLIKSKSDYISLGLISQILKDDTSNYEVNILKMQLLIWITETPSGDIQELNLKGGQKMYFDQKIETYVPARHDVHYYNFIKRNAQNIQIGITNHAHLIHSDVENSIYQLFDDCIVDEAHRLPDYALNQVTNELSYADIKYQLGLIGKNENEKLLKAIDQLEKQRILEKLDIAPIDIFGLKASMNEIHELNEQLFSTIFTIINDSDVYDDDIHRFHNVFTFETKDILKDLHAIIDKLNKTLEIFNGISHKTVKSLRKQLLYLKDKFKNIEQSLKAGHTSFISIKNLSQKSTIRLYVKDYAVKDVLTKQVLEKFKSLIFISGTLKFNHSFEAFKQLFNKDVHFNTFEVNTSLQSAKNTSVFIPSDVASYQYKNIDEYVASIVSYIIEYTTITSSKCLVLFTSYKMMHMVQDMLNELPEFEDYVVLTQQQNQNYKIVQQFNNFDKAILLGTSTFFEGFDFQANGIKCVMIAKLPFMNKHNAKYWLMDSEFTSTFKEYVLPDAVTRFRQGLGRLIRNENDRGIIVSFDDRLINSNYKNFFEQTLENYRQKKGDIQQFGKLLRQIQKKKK
The series is described as follows: EMSA. The note with it: EMSA: 50 mM Tris-HCl pH 8.0, 80 mM NaCl, 1 mM TCEP, 3.2% glycerol, 25 C, 10 min, 100 nM DNA, 5% native PAGE, protein details: 6xHis-TEV tag removed, single-stranded DNA. For orientation: Mobility shift assays separate free from complexed probe on a gel.

As to “TTTTTTTTTTTTTTTTTTTT [3'FAM-20 nt poly dT]”, the binding result (no added metal, affinity comparable to 5'-FAM DNA, recombinant protein, residues 1-897, label: 3' 6-FAM) was “binds”.

For the sequence “TTTTTTTTTTTTTTTTTTTT [5'FAM-20 nt poly dT]”, the binding result was “binds more weakly” (ATP 0.625-10 mM (Kd increases), recombinant …, residues 1-897, label: 5' 6-FAM) and “binds” (no added metal, recombinant protein, residues …, label: 5' 6-FAM).
